Literature values in patent publication US6727226B2 (priority 2000, dated 2004).

Chains of the proteins cited; added tags and fusions are not shown.
UniProt Q00975, whole entry, looked up: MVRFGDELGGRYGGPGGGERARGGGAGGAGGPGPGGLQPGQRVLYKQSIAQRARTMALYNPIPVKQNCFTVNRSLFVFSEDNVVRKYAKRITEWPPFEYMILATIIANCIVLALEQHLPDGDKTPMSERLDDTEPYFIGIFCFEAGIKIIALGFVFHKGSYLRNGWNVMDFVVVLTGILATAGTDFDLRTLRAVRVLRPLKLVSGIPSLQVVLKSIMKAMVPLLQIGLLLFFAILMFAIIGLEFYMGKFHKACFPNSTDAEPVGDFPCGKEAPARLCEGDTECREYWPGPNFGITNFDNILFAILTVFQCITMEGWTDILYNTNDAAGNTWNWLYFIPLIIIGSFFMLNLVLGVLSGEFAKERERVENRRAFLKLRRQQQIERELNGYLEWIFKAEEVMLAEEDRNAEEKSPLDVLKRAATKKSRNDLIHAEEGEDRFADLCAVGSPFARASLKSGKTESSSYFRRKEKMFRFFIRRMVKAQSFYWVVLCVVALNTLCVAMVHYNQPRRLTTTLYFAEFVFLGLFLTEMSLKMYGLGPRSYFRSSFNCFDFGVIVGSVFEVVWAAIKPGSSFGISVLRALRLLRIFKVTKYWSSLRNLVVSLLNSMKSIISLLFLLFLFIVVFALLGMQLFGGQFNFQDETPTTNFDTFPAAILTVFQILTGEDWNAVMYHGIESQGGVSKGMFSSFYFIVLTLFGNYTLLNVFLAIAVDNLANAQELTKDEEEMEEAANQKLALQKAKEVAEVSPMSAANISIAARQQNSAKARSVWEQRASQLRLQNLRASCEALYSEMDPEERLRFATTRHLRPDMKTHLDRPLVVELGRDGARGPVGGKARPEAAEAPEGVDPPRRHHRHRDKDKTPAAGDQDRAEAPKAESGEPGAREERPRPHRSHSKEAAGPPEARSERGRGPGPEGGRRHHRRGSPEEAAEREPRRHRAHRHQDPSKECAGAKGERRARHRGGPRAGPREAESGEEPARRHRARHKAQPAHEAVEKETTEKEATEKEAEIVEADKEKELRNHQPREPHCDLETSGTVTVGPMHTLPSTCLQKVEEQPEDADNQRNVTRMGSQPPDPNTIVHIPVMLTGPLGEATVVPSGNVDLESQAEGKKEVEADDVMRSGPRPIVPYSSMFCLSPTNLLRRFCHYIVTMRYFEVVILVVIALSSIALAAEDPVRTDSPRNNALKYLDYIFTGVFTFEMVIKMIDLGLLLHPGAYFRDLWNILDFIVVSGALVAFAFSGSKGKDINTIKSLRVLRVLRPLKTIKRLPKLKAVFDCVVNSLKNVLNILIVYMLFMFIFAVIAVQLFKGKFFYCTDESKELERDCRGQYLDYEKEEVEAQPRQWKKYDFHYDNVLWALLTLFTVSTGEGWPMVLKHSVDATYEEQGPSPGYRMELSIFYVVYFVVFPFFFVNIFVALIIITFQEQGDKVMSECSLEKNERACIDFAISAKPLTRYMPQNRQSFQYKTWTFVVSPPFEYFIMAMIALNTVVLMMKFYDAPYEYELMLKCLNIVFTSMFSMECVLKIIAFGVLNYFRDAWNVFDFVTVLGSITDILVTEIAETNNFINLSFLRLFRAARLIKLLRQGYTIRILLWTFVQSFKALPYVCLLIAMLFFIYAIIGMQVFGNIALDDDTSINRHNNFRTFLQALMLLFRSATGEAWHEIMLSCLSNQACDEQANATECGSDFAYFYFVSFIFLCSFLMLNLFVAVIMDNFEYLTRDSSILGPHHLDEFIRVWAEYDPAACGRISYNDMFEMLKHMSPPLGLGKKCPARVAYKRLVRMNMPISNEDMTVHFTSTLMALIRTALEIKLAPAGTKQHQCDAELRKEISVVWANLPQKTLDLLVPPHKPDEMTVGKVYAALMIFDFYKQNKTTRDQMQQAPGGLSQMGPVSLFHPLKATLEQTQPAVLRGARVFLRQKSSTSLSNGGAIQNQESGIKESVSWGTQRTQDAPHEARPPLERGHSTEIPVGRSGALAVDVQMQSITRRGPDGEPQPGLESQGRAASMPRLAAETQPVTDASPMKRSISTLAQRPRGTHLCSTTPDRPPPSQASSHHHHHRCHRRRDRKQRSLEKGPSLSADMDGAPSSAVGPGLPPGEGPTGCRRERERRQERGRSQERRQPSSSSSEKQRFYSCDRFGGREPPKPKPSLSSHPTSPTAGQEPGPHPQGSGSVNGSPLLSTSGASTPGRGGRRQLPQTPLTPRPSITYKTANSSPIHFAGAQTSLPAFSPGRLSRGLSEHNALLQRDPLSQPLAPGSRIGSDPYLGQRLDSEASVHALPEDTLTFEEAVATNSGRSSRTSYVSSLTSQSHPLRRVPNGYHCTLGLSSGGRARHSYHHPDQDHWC

Target: N-type calcium channel (Homo sapiens, UniProt Q00975)
Conditions: cited from earlier work

## CSCC[C@@H]1NC(=O)[C@H](CC(C)C)NC(=O)[C@H](CCCNC(=N)N)NC(=O)[C@H](CO)NC(=O)[C@@H]2CSSC[C@@H]3NC(=O)[C@H](CO)NC(=O)CNC(=O)[C@H]([C@@H](C)O)NC(=O)[C@H](CSSC[C@H](N)C(=O)N[C@@H](CCCCN)C(=O)NCC(=O)N[C@@H](CCCCN)C(=O)NCC(=O)N[C@@H](C)C(=O)N[C@@H](CCCCN)C(=O)N2)NC(=O)[C@H](CSSC[C@@H](C(N)=O)NC(=O)[C@H](CCCCN)NC(=O)CNC(=O)[C@H](CO)NC(=O)[C@H](CCCNC(=N)N)NC3=O)NC(=O)[C@H](CC(=O)O)NC(=O)[C@H](Cc2ccc(O)cc2)NC1=O
Compared with opiates
  tolerance or addictive properties: does not produce the tolerance or addictive properties of opiates
More potent than morphine
  potency relative to morphine: approximately 1000 times
